Compound potency records, mixed from different reports. Data source: NIAID ChemDB in PubChem.

Blank or dashed fields: not listed here. Percent inhibition refers to the dose given; in toxicity tests it is the harm to the cells. Conditions beyond the fields shown may differ between rows. ICn is the concentration giving n% inhibition. MIC bound: limit read from a one-dose screen.

smiles	test	dose	organism	measure	read by	protein	strain or isolate	value
Nc1ccc(C2SCC(=O)N2NS(=O)(=O)c2cccc(C(=O)O)c2)cc1	culture	-	Mycobacterium tuberculosis	MIC bound	BACTEC	-	H37Rv	>12.5 µg/mL
COc1ccccc1N1CCN(c2cncc(-c3ccc(C(F)(F)F)cc3)n2)CC1	target	-	Cytomegalovirus	IC50	-	UL97 kinase	-	<100 µM
Cc1cc(Cc2cc(C)c(NC(=O)C(=O)C3CCC4=C(SC5C=CC=CC5N4)C3=O)c(C(C)C)c2)cc(C(C)C)c1NC(=O)C(=O)C1CCC2=C(SC3C=CC=CC3N2)C1=O	culture	-	Mycobacterium tuberculosis	MIC bound	BACTEC	-	H37Rv	>12.5 µg/mL
CCCCCCCCC1(C)OC(=O)NC1=O	culture	-	Mycobacterium tuberculosis	MIC	-	-	H37Rv	25 µg/mL
CC(=O)c1ccc(N2CCN(c3cncc(-c4cccc(F)c4)n3)CC2)cc1	target	-	Cytomegalovirus	IC50	-	UL97 kinase	-	<100 µM
Fc1ccc(N2CCCCC2)c(NC(=S)c2ccncc2)c1	host protein	10 µM	-	inhibition	kinase activity	Tie2 (R849W)	-	12%
NC(=O)c1ccccc1-c1cncc(N2CCN(c3ccncc3)CC2)n1	target	-	Cytomegalovirus	IC50	-	UL97 kinase	-	<100 µM
CC(=O)N[C@@H](C=O)[C@@H](O)[C@H](O)[C@H](O)C(=O)O	culture	-	Mycobacterium tuberculosis	MIC bound	BACTEC	-	H37Rv	>12.5 µg/mL
N#CCC(=O)N(C(N)=O)c1ccccc1	culture	-	Mycobacterium tuberculosis	MIC	-	-	H37Rv	>100 µg/mL
COc1ccc2cc3n(c(=O)c2c1OC)CCc1cc2c(cc1-3)OCO2	culture	-	Mycobacterium tuberculosis	MIC bound	BACTEC	-	H37Rv	>12.5 µg/mL
Fc1ccc(-c2cncc(N3CCN(c4cccc(Cl)c4)CC3)n2)cc1	target	1 µM	Cytomegalovirus	inhibition	-	UL97 kinase	-	<50%
Cc1ccc(C(=O)C(=O)N(C)c2ccccc2)cc1	culture	-	Mycobacterium tuberculosis	MIC	-	-	H37Rv	>100 µg/mL
FC(F)(F)c1cc(-c2cncc(N3CCN(c4ccccc4)CC3)n2)cc(C(F)(F)F)c1	target	10 µM	Cytomegalovirus	inhibition	-	UL97 kinase	-	>15%
CCOC(=O)NC	culture	-	Mycobacterium tuberculosis	MIC	-	-	H37Rv	100 µg/mL
Cn1c2cc3ccccc3cc2nc2cc3c(cc21)c(Cl)c(=O)c1ccccc13	culture	-	Mycobacterium tuberculosis	MIC bound	BACTEC	-	H37Rv	>12.5 µg/mL
O=C(Nc1ccccn1)c1cccnc1	culture	-	Mycobacterium tuberculosis	MIC	-	-	H37Rv	>100 µg/mL
Clc1ccc(C2NC(c3ccccc3)c3c(ccc4ccccc34)O2)cc1Cl	culture	12.5 µg/mL	Mycobacterium tuberculosis	inhibition	BACTEC	-	H37Rv	37%
Nc1ccc(OCC(O)CO)cc1	culture	-	Mycobacterium tuberculosis	MIC	-	-	H37Rv	100 µg/mL
Cc1ncc([N+](=O)[O-])n1CCOc1c(Cl)cc(Cl)cc1CN(C)C1CCCCC1	culture	6.25 µg/mL	Mycobacterium tuberculosis	inhibition	resazurin	-	H37Rv	0%
Fc1ccc(N2CCN(c3cncc(-c4cccc(F)c4)n3)CC2)cc1	target	-	Cytomegalovirus	IC50	-	UL97 kinase	-	<100 µM
O=C(O)c1cccs1	culture	-	Mycobacterium tuberculosis	MIC	-	-	H37Rv	100 µg/mL

Repeating the final 3 entries:

smiles	test	dose	organism	measure	read by	protein	strain or isolate	value
Cc1ncc([N+](=O)[O-])n1CCOc1c(Cl)cc(Cl)cc1CN(C)C1CCCCC1	culture	6.25 µg/mL	Mycobacterium tuberculosis	inhibition	resazurin	-	H37Rv	0%
Fc1ccc(N2CCN(c3cncc(-c4cccc(F)c4)n3)CC2)cc1	target	-	Cytomegalovirus	IC50	-	UL97 kinase	-	<100 µM
O=C(O)c1cccs1	culture	-	Mycobacterium tuberculosis	MIC	-	-	H37Rv	100 µg/mL